PubChem BioAssay AID624099 | ICCB-Longwood | 2012

Aim: 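Human genes that papillomavirus E2 requires to repress the HPV18 LCR promoter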 (primary screen)
Cell system: human C33A cervical carcinoma cells (HPV-negative) stably expressing BPV1 E2 and an HPV18 LCR luciferase reporter
Reagent: siRNA pool against human genes, 40 nM
Duration: 72 h
Detection: 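Per-well luciferase luminescence, z-scored on each plate against the plate mean and SD with control wells left out, then averaged across three replicate plates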
Reading the numbers: mean z-score and z-score: higher = stronger reporter signal, weaker E2 silencing
Hit rule: 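Mean z ≥ 2 together with z ≥ 2 in two or more of the three replicates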
Here is an unselected part of about 21,000 reagents tested. Of all reagents, 497 (2.4%) got an active call. 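Higher z means weaker E2 silencing; only reporter increases were scored, and knock-downs that hurt cell survival may mask genuine repressor factors.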 Entries without a mark were called inactive. The numbers tell different reagents against one gene apart.

gene | reagent no. | mean z-score | z-score, replicate A | z-score, replicate B | z-score, replicate C
TMPO | 1 | 0.25 | 0.29 | 0.17 | 0.28
KNG1 | 1 | 0.57 | 0.11 | 0.64 | 0.96
TGFB1 | 1 | -1.45 | -1.35 | -1.56 | -1.45
LOC400807 (retired record) | 1 | 1 | 0.69 | 0.73 | 1.59
SRMS | 1 | 0.86 | 0.72 | 1 | 0.85
GABRA3 | 1 | -0.17 | -0.41 | -0.13 | 0.04
GJB6 | 1 | -0.68 | -1.03 | -0.81 | -0.19
DERL3 | 1 | -1.08 | -1 | -1.14 | -1.11
ATXN3 | 1 | 0.69 | 0.52 | 0.83 | 0.73
LOC283583 (retired record) | 1 | 0.71 | 1.15 | 0.37 | 0.62
BBS5 | 1 | -0.73 | -0.47 | -0.76 | -0.97

Continued; the last 2 above are carried over.
gene | reagent no. | mean z-score | z-score, replicate A | z-score, replicate B | z-score, replicate C
LOC283583 (retired record) | 1 | 0.71 | 1.15 | 0.37 | 0.62
BBS5 | 1 | -0.73 | -0.47 | -0.76 | -0.97
NLRP14 | 1 | -0.12 | 0.25 | -0.31 | -0.32
MRPL53 | 1 | 0.42 | 0.52 | 0.55 | 0.17
TPH2 | 1 | -1.03 | -0.84 | -1.24 | -1.02
LINC00996 | 1 | 1.19 | 1.03 | 1.49 | 1.05
FEV | 1 | 1.53 | 1.39 | 1.56 | 1.64
CTTN | 1 | -1 | -1 | -1.16 | -0.83
DYNLT1 | 1 | 0.83 | 1.03 | 0.79 | 0.66
PAOX | 1 | -1.26 | -1.29 | -1.06 | -1.43
ELOVL4 | 1 | -0.69 | -0.93 | -0.66 | -0.49
FEZF1 | 1 | -0.46 | -0.62 | -0.21 | -0.56
FEZF1 | 2 | -0.59 | -0.67 | 0.03 | -1.14
CHTOP | 1 | -0.1 | -0.39 | 0.1 | -0.01
